Results of unrelated studies side by side (data: NIAID ChemDB).

Common to all: toxicity to cultured cells; cell line: ATH8; read-out: CC50

Neighbouring rows are from separate reports. CCn is the concentration with n% toxicity to the cells.

smiles | value
Nc1ncnc2c1ncn2[C@@H]1O[C@H](CO)[C@H]1CO | >100 µM
Nc1ncnc2c1ncn2[C@H]1CC[C@@H](COP(=O)(O)O)O1 | >200 µM
Cc1cn([C@H]2C[C@H](Cl)[C@@H](CO)O2)c(=O)[nH]c1=O | >500 µM
Nc1nc2c(ncn2[C@H]2C=C[C@@H](CO)C2)c(=O)[nH]1 | 35 µg/mL
Nc1ncnc2c1ncn2C/C=C\CO | ~200 µM
Cc1cn([C@H]2CC[C@@H](CO)O2)c(=O)[nH]c1=O | 2000 µM
Nc1ccn([C@@H]2O[C@H](CO)C3OC32)c(=O)n1 | >5 µM
Cc1cc(-c2ccc(N=Nc3ccc4c(S(=O)(=O)O)cc(S(=O)(=O)O)c(N)c4c3O)c(C)c2)ccc1N=Nc1ccc2c(S(=O)(=O)O)cc(S(=O)(=O)O)c(N)c2c1O | >100 µg/mL
Cc1cn([C@H]2C[C@H](OS(C)(=O)=O)[C@@H](CO)O2)c(=O)[nH]c1=O | >100 µM
OC[C@H]1O[C@@H](n2cnc3c2NC=NC[C@H]3O)C[C@@H]1O | >0.05 µM
CC(C)(C)NC(=O)[C@@H]1CSCN1C(=O)[C@@H](O)[C@H](Cc1ccccc1)NC(=O)[C@H](CC(N)=O)NC(=O)COc1cccc2ccccc12 | >50 µM
Nc1ncnc2c1ncn2[C@@H]1O[C@H](CO)[C@@H](O)[C@@H]1O | <50 µg/mL
Nc1nc2c(ncn2[C@H]2CC[C@@H](CO)O2)c(=O)[nH]1 | >200 µM
Nc1ncnc2c1ncn2[C@@H]1C[C@H](CO)[C@H]1CO | >100 µM
Nc1ncn([C@H]2CC[C@@H](CO)O2)c(=O)n1 | >10 µM
Cc1ccc(C(=O)Nc2ccc(S(=O)(=O)O)c3cc(S(=O)(=O)O)cc(S(=O)(=O)O)c23)cc1NC(=O)c1cccc(NC(=O)Nc2cccc(C(=O)Nc3cc(C(=O)Nc4ccc(S(=O)(=O)O)c5cc(S(=O)(=O)O)cc(S(=O)(=O)O)c45)ccc3C)c2)c1 | <250 µg/mL
Nc1ccn([C@H]2CC[C@@H](CO)O2)c(=O)n1 | >10 µM
CC(C)[C@H](NC(=O)N(C)Cc1ccccn1)C(=O)N[C@@H](Cc1ccccc1)[C@H](O)[C@H](O)[C@H](Cc1ccccc1)NC(=O)[C@@H](NC(=O)N(C)Cc1ccccn1)C(C)C | >100 µM
Nc1ccn([C@H]2C=C[C@@H](CO)O2)c(=O)n1 | 30 µM
Nc1nc2c(ncn2[C@@H]2C[C@H](CO)[C@@H](O)C2)c(=O)[nH]1 | 32 µg/mL
O=c1ccn([C@H]2CC[C@@H](CO)O2)c(=O)[nH]1 | 1000 µM
CCO[C@H]1C[C@H](n2cc(C)c(=O)[nH]c2=O)O[C@@H]1CO | >100 µM
Nc1ncnc2c1ncn2CCOCP(=O)(O)O | 200 µM
Cc1cn([C@H]2C[C@@H](OS(C)(=O)=O)[C@@H](CO)O2)c(=O)[nH]c1=O | >100 µM
CN(C)C=Nc1ccn([C@H]2C[C@H](F)[C@@H](CO)O2)c(=O)n1 | >200 µM
Nc1ccn(C/C=C/CO)c(=O)n1 | >100 µM
Cc1cn([C@H]2C[C@H](N=[N+]=[N-])[C@@H](CO)O2)c(=O)[nH]c1=O | 45 µM
Cc1cn([C@@H]2C[C@H](CO)[C@H]2CO)c(=O)[nH]c1=O | >500 µM
CC(C)(C)NC(=O)C1N(C(=O)[C@@H](O)[C@H](Cc2ccccc2)NC(=O)[C@H](CS(C)(=O)=O)NC(=O)COc2cccc3ccccc23)CSC1(C)C | 16 µM
Nc1ncnc2c1ncn2C=C=CCO | <1000 µM
Nc1ncnc2c1ncn2CCOCP(=O)(O)O | 80 µM
Nc1nc(N)c2ncn([C@@H]3C[C@H](CO)[C@H]3CO)c2n1 | >500 µM
Nc1nc(=O)n(C=C=CCO)cc1F | >500 µM
NC[C@@H]1C=C[C@H](n2ccc(N)nc2=O)O1 | >500 µM
CSC[C@H](NC(=O)COc1cccc2ccccc12)C(=O)N[C@@H](Cc1ccccc1)[C@H](O)C(=O)N1CSC(C)(C)[C@H]1C(=O)NC(C)(C)C | 7 µM
Nc1nc(=O)n([C@H]2CC[C@@H](CO)O2)cc1Br | >30 µM
Nc1nc2c(ncn2C=C=CCO)c(=O)[nH]1 | ~100 µM
Cc1cn([C@H]2C[C@@H](O)[C@@H](CO)O2)c(=O)[nH]c1=O | >100 µM
Nc1ccn(CC#CCO)c(=O)n1 | >100 µM
O=c1ccn([C@H]2C=C[C@@H](CO)O2)c(=O)[nH]1 | >100 µM
Cc1cn([C@H]2C[C@H](N=[N+]=[N-])[C@@H](CO)O2)c(=O)[nH]c1=O | 40 µM
Nc1nc(=O)n([C@H]2CC[C@@H](CO)O2)cc1F | >50 µM
Nc1ncnc2c1ncn2[C@@H]1C[C@H](CO)[C@H]1CO | 12 µM
Nc1ccn([C@@H]2C[C@H](CO)[C@H]2CO)c(=O)n1 | >100 µM
O=c1ccn([C@H]2CC[C@@H](CO)O2)c(=O)[nH]1 | >500 µM
O=c1ccn([C@@H]2C[C@H](CO)[C@H]2CO)c(=O)[nH]1 | >500 µM
Nc1ccn([C@H]2CC[C@@H](COP(=O)(O)O)O2)c(=O)n1 | >10 µM

3 of the rows above, restated:

smiles	value
Nc1nc(N)c2ncn([C@@H]3C[C@H](CO)[C@H]3CO)c2n1	>500 µM
O=c1ccn([C@@H]2C[C@H](CO)[C@H]2CO)c(=O)[nH]1	>500 µM
Nc1nc(=O)n([C@H]2CC[C@@H](CO)O2)cc1Br	>30 µM